Results of unrelated studies side by side (data: NIAID ChemDB).

Common to all: growth or infection tests; species: HIV-1; read by: syncytia; endpoint: fold resistance

Fold resistance: result on the changed form divided by that on wild type. Conditions beyond the fields shown may differ between rows. Blank or dashed fields: not listed here.

SMILES,strain,changes,cells,result
CC(C)c1c(Sc2ccccc2)n(COCc2ccccc2)c(=S)[nH]c1=O,IIIB (TIBO 82150) (RT-L100I),RT-L100I,CEM,2.5
C=C(C)[C@@H]1CC[C@]2(C(=O)NCCCCCCCC(=O)N[C@@H](CC(C)C)[C@@H](O)CC(=O)O)CC[C@]3(C)[C@H](CC[C@@H]4[C@@]5(C)CC[C@H](O)C(C)(C)[C@@H]5CC[C@]43C)[C@@H]12,LAI,GP41-K77R,HeLa P4 + HeLa,~1
CC1=C(C(=O)Nc2ccc(C)c(C(=O)OC(C)C)c2)SCCO1,Nevirapine-resistant (RT V106A),RT-V106A,CEM,>22.2
CC(C)c1c(Sc2ccccc2)n(COCCO)c(=O)[nH]c1=O,IIIB TIBO R82913-resistant (RT K103N),RT-K103N,CEM,≥357
CC1=C(C(=O)Nc2ccc(Cl)c(C(=O)OC(C)C)c2)SCCO1,IIIB,RT-V179D,CEM,22
CCOCn1c(Cc2ccccc2)c(CC)c(=O)[nH]c1=O,IIIB,RT-Y181I,CEM,431
COc1ccc(NC(=S)OC(C)C)cc1CC(=O)OC(C)C,,RT-V106A,CEM,29.56
CCOCn1c(Sc2cc(C)cc(C)c2)c(CC)c(=O)[nH]c1=S,IIIB TIBO R82913-resistant (RT K103N),RT-K103N,CEM,36.7
CC1=C(C(=O)Nc2cc(C(=O)OC(C)C)c(Cl)cc2F)SCCO1,TSAO-resistant (RT E138K),RT-E138K,CEM,>15.4
COC(=O)c1cc(NC(=S)OC(C)C)ccc1Cl,,RT-V106A,CEM,≥20
COC(=O)Oc1ccc(NC(=O)C2=C(C)OCCS2)cc1C(=O)OC(C)C,Nevirapine-resistant (RT V106A),RT-V106A,CEM,>14.3
CC(C)O/N=C/c1cc(NC(=S)OC(C)C)ccc1Cl,,RT-Y181C,CEM,35
Cc1occc1C(=S)Nc1ccc(Cl)c(SCC=C(Cl)Cl)c1,TIBO R82913-resistant (RT K103N),RT-K103N,CEM,16
Cc1occc1C(=S)Nc1ccc(Cl)c(/C=N/OC(C)(C)C)c1,IIIB,RT-V106A,CEM,3
Cc1occc1C(=S)Nc1ccc(Cl)c(/C=N/OC(C)(C)C)c1,IIIB,RT-V106A,CEM,2.6
CCCC1=C(C(=O)Nc2ccc(Cl)c(C(=O)OC)c2)SCCO1,TSAO-resistant (RT E138K),RT-E138K,CEM,>13.3
C=CCOc1cc(NC(=S)OC(C)C)ccc1Cl,,RT-V106A,CEM,9.52
Cc1occc1C(=O)Nc1ccc(Cl)c(/C=N/N2CCCC2)c1,HEPT-resistant (RT Y188L),RT-Y188L,CEM,<6.15
Cc1occc1C(=S)Nc1ccc(Cl)c(OCC=C(Cl)Cl)c1,Pyridone-resistant (RT Y181C),RT-Y181C,CEM,18.8
CCOC(=O)c1cc(NC(=O)C2=C(C)OCCS2)ccc1Cl,TIBO-resistant (RT L100I),RT-L100I,CEM,75
COc1ccc(NC(=O)C2=C(C)OCCS2)cc1OCC=C(Cl)Cl,HEPT-resistant (RT Y188H),RT-Y188H,CEM,2.5
CCOC(=O)COc1cc(NC(=S)OC(C)C)ccc1Cl,,RT-E138K,CEM,12.8
COc1ccc(NC(=S)c2ccsc2C)cc1OCC=C(Cl)Cl,TSAO-m3T-resistant (RT E138K),RT-E138K,CEM,26
CC[C@H](C)OC(=S)Nc1ccc(Cl)c(C(=O)OC(C)C)c1,,RT-L100I,CEM,23.3
CCCC1=C(C(=O)Nc2ccc(Cl)c(C(=O)OCC)c2)SCCO1,TSAO-resistant (RT E138K),RT-E138K,CEM,24.7
CC(C)OC(=S)Nc1ccc(Cl)c(C(=O)OCc2ccccc2)c1,,RT-V106A,CEM,24.3
Cc1sccc1C(=O)Nc1ccc(Cl)c(OCC=C(Cl)Cl)c1,HEPT-resistant (RT Y188H),RT-Y188H,CEM,22.2
CC(C)OC(=O)c1cc(NC(=O)OCC2CC2)ccc1Cl,,RT-Y181C,CEM,18.9
C=C(Cl)COc1cc(NC(=S)c2ccoc2C)ccc1Cl,TSAO-m3T-resistant (RT E138K),RT-E138K,CEM,5.53
COC(=S)Nc1ccc(Cl)c(C(=O)OC(C)C)c1,,RT-Y181C,CEM,≥5.27
CCc1c(Sc2ccccc2)n(COCc2ccccc2)c(=S)[nH]c1=O,IIIB (TIBO 82150) (RT-L100I),RT-L100I,CEM,10
CN1CCN(C(=O)c2ccc3c(=O)c4ccccc4[nH]c3c2)CC1,,RT-Y181C,CEM,70.9
COc1ccc(NC(=O)c2ccoc2C)cc1OCC=C(Cl)Cl,Nevirapine-resistant isolate (RT V106A),RT-V106A,CEM,8
C/C=C/COc1cc(NC(=S)OC(C)C)ccc1Cl,,RT-V106A,CEM,12.5
CCCOC(=O)c1cc(NC(=O)C2=C(C)OCCS2)ccc1Cl,PYR-resistant (RT Y181C),RT-Y181C,CEM,225
CC(C)OC(=S)Nc1ccc(Cl)c(C(=O)SC(C)C)c1,,RT-L100I,CEM,27.6
CN1CCN(C(=O)c2ccc3c(=O)c4ccccc4[nH]c3c2)CC1,TSAO-resistant (RT E138K),RT-E138K,CEM,71.4
CC1=C(C(=O)Nc2ccc(Cl)c(C(=O)OC(C)C)c2)SCCO1,IIIB,RT-Y188L,CEM,357.1
CC(C)OC(=S)Nc1ccc(Cl)c(C(=O)OCC[Si](C)(C)C)c1,,RT-V106A,CEM,27.5

Again, the opening 3 rows:

SMILES	strain	changes	cells	result
CC(C)c1c(Sc2ccccc2)n(COCc2ccccc2)c(=S)[nH]c1=O	IIIB (TIBO 82150) (RT-L100I)	RT-L100I	CEM	2.5
C=C(C)[C@@H]1CC[C@]2(C(=O)NCCCCCCCC(=O)N[C@@H](CC(C)C)[C@@H](O)CC(=O)O)CC[C@]3(C)[C@H](CC[C@@H]4[C@@]5(C)CC[C@H](O)C(C)(C)[C@@H]5CC[C@]43C)[C@@H]12	LAI	GP41-K77R	HeLa P4 + HeLa	~1
CC1=C(C(=O)Nc2ccc(C)c(C(=O)OC(C)C)c2)SCCO1	Nevirapine-resistant (RT V106A)	RT-V106A	CEM	>22.2